A mixed list of measured activities; the numbers were collected in NIAID ChemDB.

Common to all: growth or infection tests; species: HIV-1; cells: MT-4; measure: fold resistance

Fold resistance: result on the changed form divided by that on wild type. Conditions beyond the fields shown may differ between rows.

N#Cc1cc(Cl)cc(Oc2c(Br)ccc(CC(=O)Nc3ccc(S(N)(=O)=O)cc3Cl)c2F)c1 ; changes: M230L ; value: <1
COCCNC(=O)CSc1cnc(Nc2ccc(C#N)cc2)nc1Oc1c(C)cc(C#N)cc1C ; changes: L100I ; read by: MTT ; value: 4.7
Cn1c2ccccc2c2c1cc(C#N)c(=O)n2-c1ccc([N+](=O)[O-])cc1 ; strain or isolate: F ; changes: RT-Y188L ; read by: cytopathic effect / MTT ; value: 2
Cc1cc(C#N)cc(C)c1Oc1nc(Nc2ccc(C#N)cc2)ncc1SCC(=O)NCc1ccc(O)cc1 ; changes: E138K ; read by: MTT ; value: 3.5
N#Cc1cc2[nH]c3ccccc3c2n(-c2ccc([N+](=O)[O-])cc2)c1=O ; strain or isolate: E ; changes: RT-F227C ; read by: cytopathic effect / MTT ; value: 6
CCc1c(C)[nH]c(=O)c(C(F)(F)F)c1Oc1cc(C)cc(C)c1 ; changes: RT-K103N ; read by: cytopathic effect / MTT ; value: 4
Cc1cc(NS(=O)(=O)CC2CCCCC2)c(C)c(C(OC(C)(C)C)C(=O)O)c1-c1ccc2c(c1)CCCO2 ; strain or isolate: NL4-3 ; changes: Y99H ; read by: p24 / luminescence ; value: 2
CCc1c(C)[nH]c(=O)c(Br)c1Oc1cc(C)cc(C)c1 ; changes: RT-K103N ; read by: cytopathic effect / MTT ; value: 20
Cc1cc(C#N)cc(C)c1Oc1nc(Nc2ccc(C#N)cc2)ncc1SCC(=O)NCCN1CCN(C(=O)OC(C)(C)C)CC1 ; changes: Y188L ; read by: MTT ; value: 6.9
CCc1c(C)[nH]c(=O)c(I)c1Oc1cc(C)cc(C)c1 ; changes: RT-Y181C ; read by: cytopathic effect / MTT ; value: 16
Cc1cc(C#N)cc(C)c1Oc1nc(Nc2ccc(C#N)cc2)ncc1SCC(=O)NC1CCN(C(=O)OC(C)(C)C)CC1 ; changes: Y181C ; read by: MTT ; value: 6.6
Cc1ccc(C2CC2)c(-c2ccc3c(c2C)CCCO3)c1[C@H](OC(C)(C)C)C(=O)O ; strain or isolate: NL4-3 ; changes: INSTI-resistant (IN-G140S) ; read by: luminescence ; value: 1
CCc1c(C)[nH]c(=O)c(SCCC(N)=O)c1Oc1cc(C)cc(C)c1 ; changes: RT-L100I ; read by: cytopathic effect / MTT ; value: 13
CC(C)[C@H](NC(=O)OCc1ccccn1)C(=O)N[C@@H](Cc1ccccc1)[C@@H](O)C[C@H](Cc1ccccc1)NC(=O)OCc1cccnc1 ; strain or isolate: NL4-3 ; changes: PR-L10R M46I L63P V82T ; read by: p24 ; value: 3.75
CCc1c(C)[nH]c(=O)c(OC)c1Oc1cc(C)cc(C)c1 ; changes: RT-L100I K103N ; read by: cytopathic effect / MTT ; value: 126
Cc1cc(C#N)cc(C)c1Oc1nc(Nc2ccc(C#N)cc2)ncc1SCC(=O)Nc1ccc(S(C)(=O)=O)cc1 ; changes: F227L V106A ; read by: MTT ; value: 55.5